Measurements published in patent US20090143419A1, “METHODS AND COMPOSITIONS FOR CONTROLLING ECTOPARASITES” (HATCHTECH PTY LTD, priority 2005, published 2009).

System: lice eggs
Test: Time-course in vitro lice egg hatching assay
Format: in vivo, clothing lice (Pediculus humanus humanus)
Settings: 5%; results not shown

OCCN(CCO)CCO
effect on egg hatching: did not appear to have an effect
